Data as given in PubChem BioAssay AID504761 (Drosophila RNAi Screening Center, 2011).
The deposit covers about 22,000 reagents; this is a random part of those with a known target gene and a result. In the full data, 116 (0.52%) were called active. 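Calls depend on retest data that are not deposited; infection was ranked per plate without normalising between plates; the unit of the infection score is not given.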 Raw values vary from plate to plate and are shown uncorrected. Entries without a mark were called inactive. Reagents against one gene are numbered here. Not stated in the record: the amount of reagent, the time to read-out.

- Purpose: 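Insect host genes that dengue virus relies on to spread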 (primary screen)
- Cells: D.Mel-2 cells from Drosophila
- Reagent: long dsRNA against Drosophila genes
- Treatment: infection with dengue virus type 2; dose and infection time not stated
- Measurement: 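Per well on two replicate plates, imaging gave the percent of cells positive for viral envelope protein, ranked by infection, and a nuclear count of cells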
- Scale: infection score: higher = more virus-infected cells; cell count: higher = more cells in the well
- Call rule: 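Very low infection ranking in both replicate wells (chance probability at most 0.065), then a retest showing infection dropped 1.5-fold or more at p below 0.05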
- Calls: active = confirmed: knock-down lowers infection; inactive = not picked or not confirmed

| gene | dsRNA no. | infection score, replicate 1 | infection score, replicate 2 | cell count, replicate 1 | cell count, replicate 2 |
| --- | --- | --- | --- | --- | --- |
| mRpL12 | 1 | 1.29 | 5.92 | 855 | 1639 |
| mRpL12 | 2 | 7.14 | 17.6 | 1680 | 5294 |
| CG17721 | 1 | 1.47 | 4.66 | 6537 | 6886 |
| CG32037 | 1 | 2.91 | 2.34 | 6282 | 6113 |
| Prosalpha4T1 | 1 | 2.43 | 1.06 | 6327 | 6488 |
| Prosalpha4T1 | 2 | 19.6 | 12.8 | 3990 | 3991 |
| wol | 1 | 4.51 | 0.74 | 6539 | 6509 |
| wol | 2 | 11.5 | 3.52 | 6817 | 6051 |
| Pk34A | 1 | 7.92 | 1.42 | 6008 | 6551 |
| Pk34A | 2 | 17.3 | 16.9 | 4414 | 2882 |
| CG31959 (retired record) | 1 | 2.98 | 17.1 | 6908 | 6417 |
| qua | 1 | 2.18 | 10.5 | 6699 | 6009 |
| CG6983 | 1 | 6.04 | 1.55 | 6710 | 7011 |
| tral | 1 | 11.8 | 4.59 | 5046 | 5401 |
| tral | 2 | 1.64 | 3.36 | 6100 | 6186 |
| Vps60 | 1 | 4.21 | 10.6 | 6060 | 6366 |
| B-H2 | 1 | 2.19 | 2.72 | 6494 | 6573 |
| B-H2 | 2 | 9.3 | 7.85 | 6267 | 5668 |
| Muc12Ea | 1 | 1.98 | 6.27 | 5744 | 6544 |
| Muc12Ea | 2 | 4.11 | 14.9 | 6528 | 5315 |
| Ilp2 | 1 | 7.8 | 5.22 | 6561 | 6548 |
| Ilp2 | 2 | 25.8 | 23.7 | 1521 | 6112 |
| Rap2l | 1 | 27.8 | 21.9 | 5590 | 5557 |
| Gr28a | 1 | 3.5 | 6.63 | 6164 | 6445 |
| CG34107 | 1 | 15.1 | 7.3 | 6209 | 6908 |
| ath | 1 | 11.1 | 5.44 | 5973 | 6006 |
| Gdi | 1 | 16.9 | 6.14 | 5688 | 5619 |
| Gdi | 2 | 8.2 | 0.59 | 5607 | 337 |
| Tret1-1 | 1 | 9.24 | 15.4 | 6212 | 7250 |
| Tret1-1 | 2 | 3.84 | 16.3 | 6610 | 4638 |
| Tret1-1 | 3 | 12 | 4.68 | 6296 | 5916 |
| CkIIalpha | 1 | 3.3 | 14.4 | 727 | 1494 |
| CG31279 | 1 | 3 | 1.38 | 6164 | 6223 |
| mdu | 1 | 0.98 | 24.6 | 6223 | 5862 |
| mdu | 2 | 4.84 | – | 2519 | 418 |
| eIF3d1 | 1 | 1.78 | 4.62 | 2475 | 865 |
| Ebp | 1 | 35.6 | 16.5 | 5657 | 5875 |
| Ebp | 2 | 15.5 | 20.3 | 6547 | 5619 |

Single entries from the entries so far.
Pk34A #1, cell count, replicate 2 → 6551
Entry of CkIIalpha in “infection score, replicate 2”: 14.4
Entry of qua in “cell count, replicate 2”: 6009
Prosalpha4T1 #2, cell count, replicate 2: 3991

The results go on.
| gene | dsRNA no. | infection score, replicate 1 | infection score, replicate 2 | cell count, replicate 1 | cell count, replicate 2 |
| --- | --- | --- | --- | --- | --- |
| CG15699 (retired record) | 1 | 38.8 | 14.3 | 6017 | 7007 |
| CG1620 | 1 | 32.8 | 21.1 | 5788 | 6132 |
| CG1620 | 2 | 17.2 | 30.8 | 4705 | 4279 |
| CG32376 | 1 | 4.2 | – | 5880 | 378 |
| yellow-h | 1 | – | – | 404 | 363 |
| Cdc37 | 1 | 3.14 | 0.94 | 4304 | 4269 |
| Cdc37 | 2 | 7.17 | 4.45 | 6412 | 6219 |
| Trf2 | 1 | 3.63 | 6.83 | 6056 | 6183 |
| Trf2 | 2 | 8.13 | 13.9 | 5066 | 3601 |
| Vha36-2 | 1 | 13.7 | 16.6 | 3878 | 5599 |
| Vha36-2 | 2 | 15.2 | – | 1615 | 309 |
| fbl | 1 | 0.26 | – | 386 | 256 |
| CG18577 | 1 | 2.51 | 11.6 | 6642 | 6171 |
| CG14132 | 1 | 1.28 | 7.93 | 6148 | 6244 |
| GramD1B | 1 | 18.5 | 4.4 | 4483 | 6272 |
| GramD1B | 2 | 4 | 17.5 | 6177 | 5657 |
| GramD1B | 3 | 3.38 | 5.45 | 6007 | 6344 |
| GramD1B | 4 | 15.2 | 4.87 | 3296 | 2240 |
| shi | 1 | 1.38 | 3.47 | 5579 | 4549 |
| shi | 2 | – | 4.29 | 284 | 700 |
